Reference: PubChem BioAssay AID504761 (Drosophila RNAi Screening Center, 2011)
Assay: 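Insect host genes that dengue virus relies on to spread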 (primary screen). System: D.Mel-2 cells from Drosophila. Reagent: long dsRNA against Drosophila genes. Conditions: infection with dengue virus type 2; dose and infection time not stated. Read-out: 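Cells stained for dengue envelope protein and imaged; percent of infected cells per well on duplicate plates, ranked by infection, with stained nuclei counted for cell number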. Reading the numbers: infection score: higher = more virus-infected cells; cell count: higher = more cells in the well. Active means: 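Very low infection ranking in both replicate wells (chance probability at most 0.065), then a retest showing infection dropped 1.5-fold or more at p below 0.05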. Calls: active = confirmed: knock-down lowers infection; inactive = not picked or not confirmed.
In all, the deposit lists about 22,000 reagents; this is a random part of those with a known target gene and a result. Of all reagents, 116 (0.52%) were called active. 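Calls depend on retest data that are not deposited; infection was ranked per plate without normalising between plates; the unit of the infection score is not given.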 Raw values vary from plate to plate and are shown uncorrected. Unmarked entries are inactive. Reagents against one gene are numbered here. A plus sign joins genes that one reagent is predicted to hit. No sequences are given here. Not given: the amount of reagent, the time to read-out.

predicted target | reagent | infection score, replicate 1 | infection score, replicate 2 | cell count, replicate 1 | cell count, replicate 2
babos (GeneID 37557) | 1 | 1.8 | 1.88 | 5946 | 6065
babos (GeneID 37557) | 2 | 13.7 | 30.8 | 6238 | 5537
CG2006 + Spase12 | 1 | 9.62 | 1.46 | 5621 | 6895
lawc (retired record) (GeneID 45395) | 1 | 2.43 | 13 | 6490 | 6288
CG15631 (GeneID 33675) | 1 | 3.2 | 2.66 | 6132 | 6686
Np (GeneID 35904) | 1 | – | 16.5 | 421 | 5574
Np (GeneID 35904) | 2 | 8.37 | 10.7 | 5865 | 6053
CG10834 (GeneID 35438) | 1 | 3.97 | 4.83 | 6476 | 6487
Cht12 (GeneID 246535) | 1 | 1.31 | 2.03 | 6011 | 5626
raw (GeneID 44851) | 1 | 3.21 | 4.15 | 4797 | 4632
raw (GeneID 44851) | 2 | 3.24 | 8.5 | 5564 | 5211
CG14540 (GeneID 43145) | 1 | 3.17 | 3.72 | 6658 | 6768
CG14540 (GeneID 43145) | 2 | 1.08 | 2.35 | 6844 | 6719
smp-30 (GeneID 41786) | 1 | 7.12 | 11.9 | 6699 | 6224
smp-30 (GeneID 41786) | 2 | 7.49 | 5.16 | 6699 | 6821
La (GeneID 35305) | 1 | – | 2.67 | 595 | 6741
bmm (GeneID 39611) | 1 | 5.06 | 6.58 | 6739 | 6762
Chc (GeneID 32537) | 1 | 1.5 | 0.5 | 5881 | 5990
eIF4E3 (GeneID 38923) | 1 | 7.35 | 11.4 | 6367 | 6445
Pdcd4 (GeneID 32337) | 1 | 1.8 | 1.68 | 6397 | 6653
CG7387 (GeneID 38915) | 1 | 8.3 | 10.6 | 5274 | 3819
robl (GeneID 36963) | 1 | 12.5 | 22.4 | 5626 | 4142
Mst87F (GeneID 41693) | 1 | 1.79 | 14.5 | 6100 | 5053
Mst87F (GeneID 41693) | 2 | 11.2 | 8.39 | 5814 | 6320

Next part (7 carried over from the part before).
predicted target | reagent | infection score, replicate 1 | infection score, replicate 2 | cell count, replicate 1 | cell count, replicate 2
Chc (GeneID 32537) | 1 | 1.5 | 0.5 | 5881 | 5990
eIF4E3 (GeneID 38923) | 1 | 7.35 | 11.4 | 6367 | 6445
Pdcd4 (GeneID 32337) | 1 | 1.8 | 1.68 | 6397 | 6653
CG7387 (GeneID 38915) | 1 | 8.3 | 10.6 | 5274 | 3819
robl (GeneID 36963) | 1 | 12.5 | 22.4 | 5626 | 4142
Mst87F (GeneID 41693) | 1 | 1.79 | 14.5 | 6100 | 5053
Mst87F (GeneID 41693) | 2 | 11.2 | 8.39 | 5814 | 6320
CG14834 (GeneID 38814) | 1 | 2.28 | 2.14 | 6498 | 6544
CG14834 (GeneID 38814) | 2 | 6.75 | 13.9 | 2371 | 4164
ttm3 (GeneID 35437) | 1 | 3.57 | 6.54 | 6718 | 6483
CG8907 (GeneID 42050) | 1 | 7.72 | 11.8 | 6215 | 6367
CG8907 (GeneID 42050) | 2 | 14.3 | 3.04 | 5686 | 6523
CG32032 (GeneID 192535) | 1 | 2.8 | 2.26 | 6251 | 6007
CG43102 (GeneID 42137) | 1 | 2.3 | 7.02 | 6740 | 6563
CG43102 (GeneID 42137) | 2 | 2.19 | 0.99 | 6674 | 6548
CG43102 (GeneID 42137) | 3 | 22.6 | 16.2 | 6185 | 5428
CG3527 (GeneID 31387) | 1 | 8.03 | 2.78 | 1706 | 1115
CG3527 (GeneID 31387) | 2 | 12.8 | 4.18 | 3193 | 2202
CG13875 (GeneID 38024) | 1 | 4.05 | 5.36 | 6427 | 6230
Oatp74D (GeneID 39954) | 1 | 2.71 | 2.56 | 5723 | 5818
Oatp74D (GeneID 39954) | 2 | 11.6 | 6.07 | 4926 | 7106
Arr2 (GeneID 38993) | 1 | 1 | 1.14 | 5994 | 6495
mew (GeneID 32275) | 1 | 2.11 | 2.86 | 6491 | 6302
mew (GeneID 32275) | 2 | 4.37 | 2.15 | 6155 | 6428
CG42337 (GeneID 40335) | 1 | 11.4 | 11.2 | 5955 | 5358
CG42337 (GeneID 40335) | 2 | 1.29 | 5.19 | 6024 | 6776
CG42337 (GeneID 40335) | 3 | 5.97 | 4.19 | 6247 | 6442
sc (GeneID 30982) | 1 | 3.39 | 11.6 | 6580 | 5189
sc (GeneID 30982) | 2 | – | – | 432 | 311
BORCS7 + CG13430 | 1 | 6.67 | 12.2 | 6234 | 5072
BORCS7 + CG13430 | 2 | 3.49 | 2.79 | 6328 | 6353
CG15357 (GeneID 50192) | 1 | 22.7 | 3.83 | 4737 | 6817
Hsp60A (GeneID 32045) | 1 | 3.05 | 2.09 | 6073 | 6121
CG8031 (GeneID 41601) | 1 | 4.65 | 11.5 | 2020 | 3168
RpS18 (GeneID 37292) | 1 | 11.3 | 3.55 | 2451 | 2394
stet (GeneID 38169) | 1 | 2.42 | 4.11 | 6239 | 5746
stet (GeneID 38169) | 2 | 2 | 4.92 | 5957 | 5978
Gprk2 (GeneID 49045) | 1 | 6.54 | 2.23 | 5570 | 6644
Gprk2 (GeneID 49045) | 2 | 2.96 | 13.3 | 6241 | 1558
Vps26 (GeneID 31144) | 1 | 1.52 | 5.78 | 5272 | 5843
Vps26 (GeneID 31144) | 2 | 4.8 | 10 | 5724 | 5238
